Anti-infective test results gathered from many reports (values: NIAID ChemDB through PubChem).

Common to all: tests in culture; agent: Candida glabrata; read by: broth dilution; endpoint: MIC

Blank or dashed fields: not listed here. Rows are shuffled and stem from different studies.

smiles | conditions | strain or isolate | value
O=C(CCn1ccnc1)c1ccc(Cl)cc1 | - | RTCC 1040 | >64 µg/mL
O=C(COc1ccccc1)c1ccccc1 | 48 h | ATCC 90030 | >125 µg/mL
O=c1c(N2CCOCC2)c(N2CCN(S(=O)(=O)Cc3ccccc3)CC2)cnn1-c1ccccc1 | - | C624 | 0.4 µg/mL
CC(=O)N1CCN(c2ccc(OC[C@H]3CO[C@](Cn4ccnc4)(c4ccc(Cl)cc4Cl)O3)cc2)CC1 | pH 4 | 40 isolates | >16 µg/mL
O=P(O)(O)OP(=O)(O)OP(=O)(O)O | - | MC369 | 390 µg/mL
COc1ccccc1OC/C(=N/O)c1ccccc1 | 24 h | ATCC 90030 | >125 µg/mL
O=C(CCn1ccnc1)c1cccc(O)c1 | - | RTCC 1040 | >64 µg/mL
CCC(C)CC(C)CCCCCCCCC(=O)N[C@H]1C[C@@H](O)[C@H](NCCN)NC(=O)[C@@H]2[C@@H](O)CCN2C(=O)[C@H]([C@H](O)CCN)NC(=O)[C@H]([C@H](O)[C@@H](O)c2ccc(O)cc2)NC(=O)[C@@H]2C[C@@H](O)CN2C(=O)[C@H]([C@@H](C)O)NC1=O | - | 8655 | 4 µg/mL
OC(CCn1ccnc1)c1cccc(C(O)c2ccc(Br)cc2)c1 | - | RTCC 1040 | >64 µg/mL
O/N=C(/COc1cccc(F)c1)c1ccccc1 | 48 h | ATCC 90030 | >125 µg/mL
Nc1[nH]c(=O)ncc1F | pH 5 | 40 isolates | 0.125 µg/mL
O/N=C(/COc1ccc(F)cc1)c1ccccc1 | 24 h | ATCC 90030 | 31.25 µg/mL
O=C(CCn1ccnc1)c1cccc(C(O)c2ccc(Cl)c(Cl)c2)c1 | - | RTCC 1054 | 16 µg/mL
Nc1ncccc1-c1cc(Cc2ccc(COc3ccccn3)cc2)no1 | - | 8661 | 0.06 µg/mL
O=C(CCn1ccnc1)c1cccc(C(O)c2ccc(Cl)cc2)c1 | - | RTCC 1054 | 4 µg/mL
COc1ccc(OC/C(=N/O)c2ccccc2)cc1 | 24 h | ATCC 90030 | >125 µg/mL
Clc1ccc(COC(Cn2ccnc2)c2ccc(Cl)cc2Cl)c(Cl)c1 | pH 6 | 40 isolates | 0.25 µg/mL
Cc1ccc(C(O)c2cccc(C(O)CCn3ccnc3)c2)cc1 | - | RTCC 1040 | >64 µg/mL
C[C@@H](c1ncncc1F)[C@](O)(Cn1cncn1)c1ccc(F)cc1F | pH 5 | 40 isolates | 4 µg/mL
COc1cc(OC/C(=N/O)c2ccccc2)cc(OC)c1OC | 24 h | ATCC 90030 | >125 µg/mL
CCC(C)CC(C)CCCCCCCCC(=O)N[C@H]1C[C@@H](O)[C@H](NCCN)NC(=O)[C@@H]2[C@@H](O)CCN2C(=O)[C@H]([C@H](O)CCN)NC(=O)[C@H]([C@H](O)[C@@H](O)c2ccc(O)cc2)NC(=O)[C@@H]2C[C@@H](O)CN2C(=O)[C@H]([C@@H](C)O)NC1=O | - | C624 | 0.03 µg/mL

3 of the rows above, restated:

smiles,conditions,strain or isolate,value
O/N=C(/COc1ccc(F)cc1)c1ccccc1,24 h,ATCC 90030,31.25 µg/mL
O=P(O)(O)OP(=O)(O)OP(=O)(O)O,-,MC369,390 µg/mL
O=C(CCn1ccnc1)c1cccc(C(O)c2ccc(Cl)c(Cl)c2)c1,-,RTCC 1054,16 µg/mL